Compound potency records, mixed from different reports. Data source: NIAID ChemDB in PubChem.

All rows: tests in culture

Rows are shuffled and stem from different studies. Inhibition is in % at the dose shown (toxicity tests: loss of growth or viability). a–b is a range or a potency band. MIC50, MIC90 and the like: level of inhibition, or share of isolates inhibited. An empty or dashed field is not shown.

structure | method | agent | read-out | strain or isolate | dose | setting | value
CCc1cc(C(N)=S)ccn1 | - | Mycobacterium avium intracellulare | inhibition | Serovar 8 | 1.25 µg/mL | - | 49%
CCCCCCCNC(=O)Nc1ccc(S(=O)(=O)Nc2cc(C)on2)cc1 | broth dilution / absorbance | Mycobacterium kansasii | MIC100 | 6509/96 clinical isolate | - | 14 d | 4 µM
CN[C@@H]1[C@@H](O[C@H]2O[C@H](CO)[C@@H](N)[C@H](O)[C@H]2O)OC2C[C@@H](N)[C@@H](O[C@H]3[C@H](OC4O[C@H](CNC=O)[C@@H](OCCN)[C@H]4O)[C@@H](O)[C@H](N)C[C@@H]3N)OC2[C@@H]1O | broth dilution | Mycobacterium abscessus | MIC | L948 | - | - | 8 µg/mL
COc1cc(Cc2cnc(N)nc2N)cc(OC)c1OCCCNc1ccc(S(=O)(=O)c2ccc(N)cc2)cc1 | - | Mycobacterium ulcerans | MIC | Isolate 8756 | - | - | 1 µg/mL
Nc1nc(N)c2c(n1)NC(c1ccc(F)cc1)CC(c1ccc3c(c1)OCO3)=N2 | MTT / broth dilution / absorbance | Mycobacterium szulgai | MIC | MNT1100 | - | clinical isolate | 32 µg/mL
CN[C@@H]1[C@@H](O[C@H]2O[C@H](CO)[C@@H](N)[C@H](O)[C@H]2O)OC2C[C@@H](N)[C@@H](O[C@H]3[C@@H](O)[C@@H](O)[C@H](N)C[C@@H]3N)OC2[C@@H]1O | broth dilution | Mycobacterium abscessus | MIC | L948 | - | - | 0.5 µg/mL
O=c1c(O)c(-c2ccc(O)cc2O)oc2cc(O)cc(O)c12 | - | Mycobacterium phlei | MIC | - | - | - | >100 µg/mL
CN[C@@H]1[C@@H](O[C@H]2O[C@H](CO)[C@@H](N)[C@H](O)[C@H]2O)OC2C[C@@H](N)[C@@H](O[C@H]3C[C@@H](O)[C@H](N)C[C@@H]3N)OC2[C@@H]1O | broth dilution | Mycobacterium abscessus | MIC | L948 | - | - | 1 µg/mL
COc1c(O)cc2oc(-c3ccccc3)cc(=O)c2c1O | - | Mycobacterium phlei | MIC | - | - | - | 15 µg/mL
CCCCCCCCCCNC(=O)Nc1ccc(S(=O)(=O)Nc2cc(C)on2)cc1 | broth dilution / absorbance | Mycobacterium kansasii | MIC100 | 6509/96 clinical isolate | - | 21 d | 125 µM
Nc1nc(N)c2c(n1)NC(c1ccc3c(c1)OCO3)CC(c1ccccc1)=N2 | MTT / broth dilution / absorbance | Mycobacterium chelonae | MIC | MNT1407 | - | clinical isolate | >32 µg/mL
CCN(CC)c1nc2c(s1)c1c(O)c3c(O)c(C)c4c(c32)C(=O)[C@@](C)(O/C=C/[C@H](OC)[C@@H](C)[C@@H](OC(C)=O)[C@H](C)[C@H](O)[C@H](C)[C@@H](O)[C@@H](C)/C=C/C=C(/C)C(=O)N1)O4 | - | Mycobacterium avium | MBC | 3350-4 | - | - | 8 µg/mL
COc1cc2oc(-c3ccccc3)c(OC)c(=O)c2c(OC)c1OC | - | Mycobacterium phlei | MIC | - | - | - | 20 µg/mL
COc1ccc(C2CC(c3ccc4c(c3)OCO4)=Nc3c(N)nc(SC)nc3N2)cc1 | MTT / broth dilution / absorbance | Mycobacterium chelonae | MIC | MNT1407 | - | clinical isolate | >32 µg/mL
CC1CN(c2c(F)cc3c(=O)c(C(=O)O)cn(C4CC4)c3c2Br)CCN1 | - | Mycobacterium bovis | MIC | BCG-CX2 (A90V D94N) | - | - | 2.1 µg/mL
CN[C@@H]1[C@@H](O)[C@@H](O[C@@H]2[C@@H](O)[C@H](O[C@H]3O[C@H](CN)CC[C@H]3N)[C@@H](N)C[C@H]2N)OC[C@]1(C)O | broth dilution | Mycobacterium abscessus | MIC | L948 | - | - | 2–4 µg/mL
NC[C@H]1O[C@H](O[C@H]2[C@H](O)[C@@H](O[C@H]3O[C@H](CO)[C@@H](O)[C@H](N)[C@H]3O)[C@H](N)C[C@@H]2N)[C@H](O)[C@@H](O)[C@@H]1O | - | Mycobacterium avium complex | MIC | Isolate C-35 | - | - | 400 µg/mL
Cc1cc(NS(=O)(=O)c2ccc(NC(=O)N3CCC3)cc2)no1 | broth dilution / absorbance | Mycobacterium kansasii | MIC100 | 235/80 | - | 21 d | 8 µM
Nc1nc(N)c2c(n1)NC(c1ccc(C(F)(F)F)cc1)CC(c1ccc3c(c1)OCO3)=N2 | MTT / broth dilution / absorbance | Mycobacterium chelonae | MIC | MNT1407 | - | clinical isolate | 32 µg/mL
O=c1c(O)c(-c2ccc(O)c(O)c2)oc2cc(O)ccc12 | - | Mycobacterium phlei | MIC | - | - | - | >100 µg/mL
CCCCCCNC(=O)Nc1ccc(S(=O)(=O)Nc2cc(C)on2)cc1 | broth dilution / absorbance | Mycobacterium kansasii | MIC100 | 6509/96 clinical isolate | - | 14 d | 250 µM
CC[C@@H](CO)NCCN[C@@H](CC)CO | - | Mycobacterium avium intracellulare | MIC | N-475 (HIV-) | - | - | 1 µg/mL
Nc1nc(N)c2c(n1)NC(c1ccc(Cl)cc1)CC(c1ccc3c(c1)OCO3)=N2 | MTT / broth dilution / absorbance | Mycobacterium chelonae | MIC | MNT1407 | - | clinical isolate | 32 µg/mL
O=c1cc(-c2ccc(O)cc2)oc2cc(O)cc(O)c12 | - | Mycobacterium phlei | MIC | - | - | - | >100 µg/mL
CCN1CCN(c2cc3c(cc2F)c(=O)c(C(=O)O)cn3C2CC2)CC1 | - | Mycobacterium bovis | MIC | BCG-CX2 (A90V D94N) | - | - | 35 µg/mL
CN(C)c1ccc(O)c2c1C[C@H]1C[C@H]3[C@H](N(C)C)C(=O)C(C(N)=O)=C(O)[C@@]3(O)C(=O)C1=C2O | - | Mycobacterium marinum | MIC50 | 37 clinical isolates | - | - | 0.75 µg/mL
C[C@@H]1CN(c2c(F)c(N)c3c(=O)c(C(=O)O)cn(C4CC4)c3c2F)C[C@H](C)N1 | broth dilution | Mycobacterium avium complex | MIC | 5 | - | - | 1 µg/mL
Cc1cc(NS(=O)(=O)c2ccc(NC(=O)C(=O)Nc3ccc(S(=O)(=O)Nc4cc(C)on4)cc3)cc2)no1 | broth dilution / absorbance | Mycobacterium kansasii | MIC100 | 235/80 | - | 21 d | 8 µM
Nc1ccc(S(=O)(=O)c2ccc(N)cc2)cc1 | - | Mycobacterium ulcerans | MBC | Isolate 842 | - | - | 2 µg/mL
COc1c(N2CCNC(C)C2)c(F)cc2c(=O)c(C(=O)O)cn(C3CC3)c12 | - | Mycobacterium marinum | MIC50 | 37 clinical isolates | - | - | 0.094 µg/mL
CN[C@@H]1[C@@H](O[C@H]2O[C@H](CO)[C@@H](N)[C@H](O)[C@H]2O)OC2C[C@@H](N)[C@@H](O[C@H]3[C@H](O[C@@H]4O[C@H](CNCCN)[C@@H](O)[C@H]4O)[C@@H](O)[C@H](N)C[C@@H]3N)OC2[C@@H]1O | broth dilution | Mycobacterium abscessus | MIC | L948 | - | - | 2 µg/mL
C[C@H]1COc2c(N3CCN(C)CC3)c(F)cc3c(=O)c(C(=O)O)cn1c23 | - | Mycobacterium marinum | MIC50 | 37 clinical isolates | - | - | 1 µg/mL
Nc1nc(N)c2c(n1)NC(c1ccccc1)CC(c1ccc3c(c1)OCO3)=N2 | MTT / broth dilution / absorbance | Mycobacterium szulgai | MIC | MNT1100 | - | clinical isolate | 32 µg/mL
CN[C@@H]1[C@@H](O[C@H]2O[C@H](CO)[C@@H](N)[C@H](O)[C@H]2O)OC2C[C@@H](N)[C@@H](O[C@H]3[C@@H](O)[C@@H](O)[C@H](NC(=O)C(O)CCN)C[C@@H]3N)OC2[C@@H]1O | broth dilution | Mycobacterium abscessus | MIC | L948 | - | - | 2 µg/mL
NC[C@H]1O[C@H](O[C@H]2[C@H](O)[C@@H](O[C@H]3O[C@H](CO)[C@@H](O)[C@H](N)[C@H]3O)[C@H](N)C[C@@H]2N)[C@H](O)[C@@H](O)[C@@H]1O | - | Mycobacterium avium intracellulare | MIC | N-752 (HIV-) | - | - | 0.5 µg/mL
CC1CN(c2cc3c(cc2F)c(=O)c(C(=O)O)cn3C2CC2)CCN1 | - | Mycobacterium bovis | MIC | BCG-KD1295 (WILD TYPE) | - | - | 0.053 µg/mL

Repeating the final 5 entries:

structure,method,agent,read-out,strain or isolate,dose,setting,value
C[C@H]1COc2c(N3CCN(C)CC3)c(F)cc3c(=O)c(C(=O)O)cn1c23,-,Mycobacterium marinum,MIC50,37 clinical isolates,-,-,1 µg/mL
Nc1nc(N)c2c(n1)NC(c1ccccc1)CC(c1ccc3c(c1)OCO3)=N2,MTT / broth dilution / absorbance,Mycobacterium szulgai,MIC,MNT1100,-,clinical isolate,32 µg/mL
CN[C@@H]1[C@@H](O[C@H]2O[C@H](CO)[C@@H](N)[C@H](O)[C@H]2O)OC2C[C@@H](N)[C@@H](O[C@H]3[C@@H](O)[C@@H](O)[C@H](NC(=O)C(O)CCN)C[C@@H]3N)OC2[C@@H]1O,broth dilution,Mycobacterium abscessus,MIC,L948,-,-,2 µg/mL
NC[C@H]1O[C@H](O[C@H]2[C@H](O)[C@@H](O[C@H]3O[C@H](CO)[C@@H](O)[C@H](N)[C@H]3O)[C@H](N)C[C@@H]2N)[C@H](O)[C@@H](O)[C@@H]1O,-,Mycobacterium avium intracellulare,MIC,N-752 (HIV-),-,-,0.5 µg/mL
CC1CN(c2cc3c(cc2F)c(=O)c(C(=O)O)cn3C2CC2)CCN1,-,Mycobacterium bovis,MIC,BCG-KD1295 (WILD TYPE),-,-,0.053 µg/mL